Source: patent publication US9625458B2, “Biosensor” (priority 2002, dated 2017)
Where a chain is given by its changes, count along the chain named. In names and notes the source's numbering stands.

Protein sequences, listed by entry. Tags and fused reporters are not part of them. Lines headed by an entry give the natural chain unless they say otherwise; changes in a name come on top.
UniProt P02924: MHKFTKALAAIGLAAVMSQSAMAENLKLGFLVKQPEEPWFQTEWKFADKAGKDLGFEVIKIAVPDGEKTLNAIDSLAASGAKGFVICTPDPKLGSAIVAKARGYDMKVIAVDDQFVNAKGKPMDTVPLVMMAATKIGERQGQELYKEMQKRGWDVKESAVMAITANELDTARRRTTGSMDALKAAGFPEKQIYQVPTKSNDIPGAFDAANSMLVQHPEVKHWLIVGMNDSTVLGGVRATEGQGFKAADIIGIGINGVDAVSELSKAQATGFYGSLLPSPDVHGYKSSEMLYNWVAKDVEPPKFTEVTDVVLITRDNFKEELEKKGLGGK

B1: arabinose BP F23C Acrylodan (conjugate, UniProt P02924 24-329, looked up, variant F23C)
L-arabinose-binding …: ENLKLGFLVKQPEEPWFQTEWKCADKAGKDLGFEVIKIAVPDGEKTLNAIDSLAASGAKGFVICTPDPKLGSAIVAKARGYDMKVIAVDDQFVNAKGKPMDTVPLVMMAATKIGERQGQELYKEMQKRGWDVKESAVMAITANELDTARRRTTGSMDALKAAGFPEKQIYQVPTKSNDIPGAFDAANSMLVQHPEVKHWLIVGMNDSTVLGGVRATEGQGFKAADIIGIGINGVDAVSELSKAQATGFYGSLLPSPDVHGYKSSEMLYNWVAKDVEPPKFTEVTDVVLITRDNFKEELEKKGLGGK
modifications: acrylodan label
B2: Glu/Asp BP T129C JPW4042 (conjugate, UniProt P37902 23-302, looked up, variant T129C)
Glutamate/aspartate import …: DDAAPAAGSTLDKIAKNGVIVVGHRESSVPFSYYDNQQKVVGYSQDYSNAIVEAVKKKLNKPDLQVKLIPITSQNRIPLLQNGTFDFECGSTTNNVERQKQAAFSDCIFVVGTRLLTKKGGDIKDFANLKDKAVVVTSGTTSEVLLNKLNEEQKMNMRIISAKDHGDSFRTLESGRAVAFMMDDALLAGERAKAKKPDNWEIVGKPQSQEAYGCMLRKDDPQFKKLMDDTIAQVQTSGEAEKWFDKWFKNPIPPKNLNMNFELSDEMKALFKEPNDKALN
modifications: JPW4042 label
B3: Glu/Asp BP T129C JPW4045 (conjugate, UniProt P37902 23-302, looked up, variant T129C)
Glutamate/aspartate import …: B2 Glutamate/aspartate import …
modifications: JPW4045 dye conjugate
B4: Glu/Asp BP T129C Acrylodan (conjugate, UniProt P37902 23-302, looked up, variant T129C)
Glutamate/aspartate import …: B2 Glutamate/aspartate import …
modifications: acrylodan conjugate
B5: Glu/Asp BP T129C Fluorescein (conjugate, UniProt P37902 23-302, looked up, variant T129C)
Glutamate/aspartate import …: B2 Glutamate/aspartate import …
modifications: fluorescein conjugate
B6: Glu/Asp BP T129C NBD (conjugate, UniProt P37902 23-302, looked up, variant T129C)
Glutamate/aspartate import …: B2 Glutamate/aspartate import …
modifications: NBD conjugate
B7: arabinose BP F23C Fluorescein (conjugate, UniProt P02924 24-329, looked up, variant F23C)
L-arabinose-binding …: B1 L-arabinose-binding …
modifications: fluorescein label
B8: arabinose BP F23C NBD (conjugate, UniProt P02924 24-329, looked up, variant F23C)
L-arabinose-binding …: B1 L-arabinose-binding …
modifications: NBD label
B9: arabinose BP K301C JPW4039 (conjugate, UniProt P02924 24-329, looked up, variant K301C)
L-arabinose-binding …: B1 L-arabinose-binding … with C23F, K301C
modifications: JPW4039 label
B10: arabinose BP K301C Acrylodan (conjugate, UniProt P02924 24-329, looked up, variant K301C)
L-arabinose-binding …: B1 L-arabinose-binding … with C23F, K301C
modifications: acrylodan label
B11: arabinose BP K301C Fluorescein (conjugate, UniProt P02924 24-329, looked up, variant K301C)
L-arabinose-binding …: B1 L-arabinose-binding … with C23F, K301C
modifications: fluorescein label
B12: histidine BP E167C Acrylodan (conjugate, UniProt P0AEU0 23-260, looked up, variant E167C)
Histidine-binding periplasmic …: AIPQNIRIGTDPTYAPFESKNSQGELVGFDIDLAKELCKRINTQCTFVENPLDALIPSLKAKKIDAIMSSLSITEKRQQEIAFTDKLYAADSRLVVAKNSDIQPTVESLKGKRVGVLQGTTQETFGNEHWAPKGIEIVSYQGQDNIYSDLTAGRIDAAFQDEVAASCGFLKQPVGKDYKFGGPSVKDEKLFGVGTGMGLRKEDNELREALNKAFAEMRADGTYEKLAKKYFDFDVYGG
modifications: acrylodan conjugate
B13: arabinose BP K301C NBD (conjugate, UniProt P02924 24-329, looked up, variant K301C)
L-arabinose-binding …: B1 L-arabinose-binding … with C23F, K301C
modifications: NBD label
B14: histidine BP E167C Fluorescein (conjugate, UniProt P0AEU0 23-260, looked up, variant E167C)
Histidine-binding periplasmic …: B12 Histidine-binding periplasmic …
modifications: fluorescein conjugate
B15: histidine BP E167C NBD (conjugate, UniProt P0AEU0 23-260, looked up, variant E167C)
Histidine-binding periplasmic …: B12 Histidine-binding periplasmic …
modifications: NBD dye conjugate
B16: histidine BP K229C Acrylodan (conjugate, UniProt P0AEU0 23-260, looked up, variant K229C)
Histidine-binding periplasmic …: B12 Histidine-binding periplasmic … with C167E, K229C
modifications: acrylodan conjugate
B17: histidine BP K229C Fluorescein (conjugate, UniProt P0AEU0 23-260, looked up, variant K229C)
Histidine-binding periplasmic …: B12 Histidine-binding periplasmic … with C167E, K229C
modifications: fluorescein label
B18: histidine BP K229C NBD (conjugate, UniProt P0AEU0 23-260, looked up, variant K229C)
Histidine-binding periplasmic …: B12 Histidine-binding periplasmic … with C167E, K229C
modifications: NBD label
B19: histidine BP V163C JPW4042 (conjugate, UniProt P0AEU0 23-260, looked up, variant V163C)
Histidine-binding periplasmic …: B12 Histidine-binding periplasmic … with V163C, C167E
modifications: JPW4042 dye label
B20: histidine BP V163C Acrylodan (conjugate, UniProt P0AEU0 23-260, looked up, variant V163C)
Histidine-binding periplasmic …: B12 Histidine-binding periplasmic … with V163C, C167E
modifications: acrylodan conjugate
B21: histidine BP V163C Fluorescein (conjugate, UniProt P0AEU0 23-260, looked up, variant V163C)
Histidine-binding periplasmic …: B12 Histidine-binding periplasmic … with V163C, C167E
modifications: fluorescein conjugate

Test: Fluorescence emission spectra without and with saturating ligand (wavelength shift, ΔIstd, ΔRmax)
Details: for λmax,apo (nm) / λmax,sat (nm): emission maximum; for λmax,apo (nm): absence of ligand; for λmax,sat (nm): saturating ligand (ligand column); for ΔIstd: standard intensity change; for ΔIstd / ΔRmax: unbound vs ligand-saturated; for ΔRmax: standard ratiometric change
Protocol: Fluorimetry. All measurements were conducted with an SLM Aminco-Bowman series 2 fluorimeter, with sample stirring at 25° C. Fluorescence emission spectra were acquired with excitation and emission slit widths of 4 and 8 nm, respectively. Photomultiplier tube potential was maintained between 400 and 800 volts. Protein concentrations were in the range of 50 to 1000 nM. Fluorophore-specific excitation was at the following approximate wavelengths: tryptophan, 290 nm; acrylodan, 390 nm; fluorescein, 485 nm; pyrene, 340 nm; NBD and NBDE, 490 nm; JPW4039, 485 nm; JPW4042, 470 nm; JPW4045, 470 nm.
Assessment of fluorescent biosensor function. Fluorescence emission spectra of bPBP-fluorophore conjugates were recorded in the absence and presence of saturating ligand concentrations. Spectral changes were characterized by four parameters: wavelength shift (the difference between the wavelengths of emission maximum in the unbound and ligand-saturated states), direction of intensity change (increase or decrease in intensity at the wavelengths of maximum emission in the two states), standard intensity change (ΔIstd), and standard ratiometric change (ΔR). ΔIstd is defined as the normalized intensity change relative to the average intensity, determined at the wavelength mid-point between the two emission maxima:
[formula] where λstd=(λmax, unbound+λmax, saturated)/2 and I1, I2 are the fluorescence intensities at λstd of each spectrum respectively (FIG. 4A). ΔR is defined in terms of two emission bands, A1 ([λ1, λ2]) and A2 ([λ3, λ4]) (FIG. 4B):
[formula] where ^∘A1, […] the areas in the absence of ligand, and ^∞A1, ^∞A2 the areas in the presence of saturating ligand. A computer program was used to enumerate ΔR for all possible pairs of wavelength bands in the two spectra, to identify the optimal sensing condition, defined as the maximum value of ΔR. Adjustable parameters of the algorithm, and their values used for ΔRmax quantities reported here, are: step size (2 nm), step width (10 nm), minimum integration area limit (fraction of total: 0.1), and maximum integration area limit (fraction of total: 1).

Molecule | λmax,apo (nm) | λmax,sat (nm) | ΔIstd | ΔRmax
B1 | 503 | 503 | 0.02 | 0.99
B2 | 649 | 650 | 0.06 | 0.68
B3 | 644 | 648 | 0.05 | 0.73
B4 | 484 | 482 | 0.04 | 0.52
B5 | 523 | 523 | 0.02 | 0.17
B6 | 537 | 538 | 0.09 | 0.15
B7 | 519 | 519 | 0.04 | 0.45
B8 | 543 | 548 | 0.38 | 0.76
B9 | 582 | 588 | 1.20 | 1.73
B10 | 486 | 486 | 0.10 | 1.19
B11 | 518 | 517 | 0.41 | 1.06
B12 | 504 | 506 | 0.17 | 0.72
B13 | 532 | 538 | 0.08 | 3.15
B14 | 517 | 518 | 0.08 | 0.40
B15 | 539 | 541 | 0.05 | 0.42
B16 | 526 | 527 | 0.02 | 0.41
B17 | 517 | 516 | 0.03 | 0.05
B18 | 532 | 536 | 0.12 | 0.31
B19 | 659 | 654 | 0.82 | 2.44
B20 | 493 | 500 | 0.03 | 2.05
B21 | 520 | 521 | 0.12 | 0.10
